Measured values from several laboratories, pooled; numbers as filed in NIAID ChemDB.

Common to all: growth or infection tests; organism: Poliovirus; cell line: HeLa; endpoint: EC50

ECn is the concentration giving n% inhibition of infection, replication or growth. Neighbouring rows are from separate reports. An empty or dashed field is not shown.

compound	strain or isolate	value
C=C(N=CC)c1nc(-c2ccc(OC)cc2)n(C2O[C@H](CO)[C@@H](O)[C@H](O)[C@H]2O)n1	TYPE 1	>200 µg/mL
CC(=O)OCCOCN1C=CC(=O)N(COCCO)S1(=O)=O	TYPE 1	>400 µg/mL
Cc1cccn2c(C3OCCO3)cnc12	TYPE 1	>1000 µM
CC(=O)c1c(-c2ccc(Cl)c(Cl)c2)oc2ccccc2c1=O	TYPE 2	>25 µM
Cc1ccn2c(C(SCCc3ccccc3)SCCc3ccccc3)cnc2c1	TYPE 1	>1000 µM
C=C(N=CC)c1nc(-c2cccc(C)c2)n(C2O[C@H](CO)[C@@H](O)[C@H](O)[C@H]2O)n1	TYPE 1	>400 µg/mL
CC(=O)Oc1ccc(/C=C/C(=O)Oc2c(-c3ccc(Cl)c(Cl)c3)oc3ccccc3c2=O)cc1OC(C)=O	TYPE 2	>0.39 µM
Nc1ncnc2c1ncn2C1CC(COP(=O)(O)O)[C@@H](O)[C@H]1O	TYPE 1	>10 µg/mL
COc1cc(/C=C/C(=O)Oc2c(-c3ccc(Cl)c(Cl)c3)oc3ccccc3c2=O)ccc1OC(C)=O	TYPE 2	>0.39 µM
Cc1cn([C@@H]2O[C@H](CO)[C@](O)(C(F)(F)F)[C@H]2O)c(=O)[nH]c1=O	TYPE 1	>400 µg/mL
Nc1ncnc2c1ncn2C(CF)CCCO	TYPE 1	>400 µg/mL
C=C(N=CC)c1nc(-c2ccccc2)n(C2O[C@H](CO)[C@@H](O)[C@H](O)[C@H]2O)n1	TYPE 1	>200 µg/mL
O=C(Oc1c(-c2ccc(Cl)cc2)oc2ccccc2c1=O)c1cc(O)c(O)c(O)c1	TYPE 2	>25 µM
O=c1c(Cc2ccc(O)cc2)coc2ccccc12	TYPE 2	>25 µM
CC(=O)OCCOCN1C(=O)C=CN(COCCO)S1(=O)=O	TYPE 1	>400 µg/mL
COc1ccc(Cc2coc3ccccc3c2=O)cc1	TYPE 2	>25 µM
Nc1nc(Cl)c2ncn([C@H]3CO[C@@H](CO)C3)c2n1	TYPE 1	>200 µg/mL
C=C(N=CC)c1nc(-c2ccc(OC)cc2)n([C@@H]2O[C@H](CO)[C@@H](O)[C@H]2O)n1	TYPE 1	>400 µg/mL
Cc1ccn2c(C3SCCS3)cnc2c1	TYPE 1	>1000 µM
O=c1c(O)c(-c2ccc(Cl)cc2)oc2ccccc12	TYPE 2	>6.25 µM
Nc1ncnc2c1ncn2[C@@H]1C[C@H](CO)[C@@H](O)[C@H]1O	TYPE 1	>4 µg/mL
O=C1/C(=C/c2ccc(Cl)cc2)COc2ccccc21	TYPE 2	>6.25 µM
Nc1ncnc2c1ncn2[C@@H]1C=C(CO)[C@@H](O)[C@H]1O	TYPE 1	>40 µg/mL
Nc1ccn([C@@H]2C=C(CO)[C@@H](O)[C@H]2O)c(=O)n1		0.1 µg/mL
Nc1ncnc2c1ncn2[C@@H]1O[C@H](CO)[C@](O)(C(F)(F)F)[C@H]1O	TYPE 1	>400 µg/mL
CC1=CC(=O)N(c2ccccc2)S(=O)(=O)N1COCCO	TYPE 1	>400 µg/mL
Nc1ncnc2c1ncn2[C@@H]1C=C(CF)[C@H](O)[C@H]1O	TYPE 1	>200 µg/mL
Nc1nc(Cl)c2ccn([C@H]3CO[C@@H](CO)C3)c2n1	TYPE 1	>200 µg/mL
CC1=C[C@@H](n2cnc3c(N)ncnc32)[C@H](O)[C@@H]1O	TYPE 1	>200 µg/mL
CC(=O)OCCOCN1C=C(C#N)C(N)=NS1(=O)=O	TYPE 1	>400 µg/mL
O=C1/C(=C/c2ccc(O)cc2)COc2ccccc21	TYPE 2	>6.25 µM
CC(=O)OCCOCN1C(C)=CC(N)=[N+](c2ccccc2)S1(=O)=O	TYPE 1	>400 µg/mL
CC=NC(=N)c1nc(-c2ccc(OC)cc2)n(C/C=C/c2ccccc2)n1	TYPE 1	>400 µg/mL
COc1cc(/C=C/C(=O)Oc2c(-c3ccc(Cl)c(Cl)c3)oc3ccccc3c2=O)ccc1O	TYPE 2	>1.56 µM
Nc1ccn(CCCC(O)CF)c(=O)n1	TYPE 1	>400 µg/mL
O=C1/C(=C/c2ccccc2)COc2ccccc21	TYPE 2	>6.25 µM
Cc1cn(CCCC(O)CF)c(=O)[nH]c1=O	TYPE 1	>400 µg/mL
Cc1ccn2c(C3OCCS3)cnc2c1	TYPE 1	>1000 µM

The last 4 rows once more:

compound,strain or isolate,value
Nc1ccn(CCCC(O)CF)c(=O)n1,TYPE 1,>400 µg/mL
O=C1/C(=C/c2ccccc2)COc2ccccc21,TYPE 2,>6.25 µM
Cc1cn(CCCC(O)CF)c(=O)[nH]c1=O,TYPE 1,>400 µg/mL
Cc1ccn2c(C3OCCS3)cnc2c1,TYPE 1,>1000 µM